Assays:
[1] = target: T1, His-OpaR (Vibrio parahaemolyticus RIMD2210633) (UniProt Q79YV4); experiment: EMSA; details: recombinant protein; residues 1-204; protein details: 6xHis (pET28a); label: 5'-32P; probe letters rebuilt from the primers and the genome
T1 sequence: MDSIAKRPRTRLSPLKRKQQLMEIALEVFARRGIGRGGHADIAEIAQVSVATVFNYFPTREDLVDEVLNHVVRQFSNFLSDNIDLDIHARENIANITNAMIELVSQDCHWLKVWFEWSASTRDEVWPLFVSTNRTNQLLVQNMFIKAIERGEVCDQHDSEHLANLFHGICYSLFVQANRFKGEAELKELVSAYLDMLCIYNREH

Amino acid sequences for entries named in this document (tags omitted). Residues count along the entry.
UniProt Q05938, 1-176: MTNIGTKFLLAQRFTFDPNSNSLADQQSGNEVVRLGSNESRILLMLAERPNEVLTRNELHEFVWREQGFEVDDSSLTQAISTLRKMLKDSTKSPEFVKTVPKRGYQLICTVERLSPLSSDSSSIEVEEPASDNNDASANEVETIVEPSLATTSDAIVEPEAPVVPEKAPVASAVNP

[2] = target: His-ToxR (Vibrio parahaemolyticus RIMD2210633) (UniProt Q05938); experiment: EMSA; details: recombinant protein; residues 1-176; protein details: 6xHis (pET28a); label: 5'-32P; probe letters rebuilt from the primers and the genome

Sequence | binding result [1] | binding result [2]
CAATGGTGAATATGCCGTGTTGATAATATCTATTAATATTATATAGTTACATGCACGTCTATACCCTAGGTGTAGAGTTCTGCATTAGGTAGTGATTACTACCTGAGTTGTGTATCTATGATGAAGTGAAATTAGCCTAGCATCGCTTCATATTAGTTACACCTTTGTGGGTGTGACACGCACTCACCTTTTTATTCATACTTCCTCAGTCGCGATAGGTTATTTATTGCTACTGAGGAAGGCGTATCCCTCCAGAACCTCAACCTTCGGCTATCAGTGCTTAAATTGAATTTGTTAACTTCTGCCCAAAAGTAAAAAACTGTTTTTGCTTAAAGCCTGCCTTTTGAGTTGGATTGAAGGGTAATAAGTTTGAATTGATAGTTAAAACAACCAAATAACCTGTGGTTTTGTTATTTCTCGGGCATTTCGGTTTTCTGGAAGTTTTCTATGTGATTGAATGTTATGAATTAAATTAGTAGCATTAGCACACCAAATCGTACTTGTAAGCCTTATCAGCTTAAACGTCACCGCAACCATGTTTACGATGTTGGTTGTGGAGAATTCAAATGCATTTAGTTTGCAAATTTATACCTAGCTCGAAGCTTTCCTCCAACGAGCTATC (double strand) [VP1388 promoter EMSA fragment] | binds | –
TCTTCTTGTGAAGTCGCTGAAAAACATAATGTTAAGTTCCAACTGAGTTGATAATAAAATAATAAAGATAGATTTTTTTATTGTATTCGCCTGCTATGCCAAATGACATGCAATGCATTTTTTCTGATTTTATAGATAAAAAAAGATTTTTAGACAATAAAAAGCCGATAAATCTAATTAAAATCCATTTTGTGTGATCTTTGTTCCTAATATTAATATCAATTGGCTAATTTGCGTGTAGGAAAAATCCTATTTTTCATTCATTTTGTTAGTTTTTTATGATGTAAATGAACATTTTAATAAACTTAATATTAGGTGTTTTTTTATTATCAATTGCTGATATACGGTCTTTGCTTATTCAATTTTCTAGAATAATGCGGCTATTTATCAAGGTTCTATAATGCGCCTGTTAATGGTTGAAATGCCTATTTTGATAGTTAAAGTGTGCTTTGTTGTGGTCGCTTTATTTTATATCTTGAAAAAGAGAGTGTAATTGATATCGTCCTTCCTCCAAATAATAAAAAATAGATTTTATTGGGGAAATCAATGTCAAAATCTAGTCAAGTTGGACTCATTTATGCCATGTGTT (double strand) [VP1409 promoter EMSA fragment] | binds | binds
GCCAATCTTTGCTCGTTCAGTTTCTTTTTCTCAATGGCTTTAACAACCAACTGATCAATGTATCCTTTGGCTGCACCCTGAATATCAGACACTTTGCACTCTTTTATGGAACAAATATTATTAGACCGAAATAATATTTGCTGAAACATCCTTGTTTCAAGGGTAGTATTTAAAACGAACAGTAAGCCTATTATTTTAGTTATAATTACTAAGTTATTAGACTCTTTGACTTACGCTTTCACTACCTGAATTACGTTGTTTTAGAAATTAAAATTTCAACAACGTAATATGACTTCATTTTCATTATATATTTCGACAAAGAATGATTAGCACGCTAGTAATTGAAGTAGCGCTTTATCACCCCCGAAGTCAAACATCAGCAGCGTTACGGGCTGGTTAAAGTGATGATATTTAACCGCAAATGCTCCAAGAGCAAGAGATGAACAGTTTCCCATCGTCCCCCATAACTCGTTGATAAGCAAAGGTTGTTCTGGGTTAATAAATCGCTCAGCTTTGGCACCCAGCGCGAAACCGTAATCTTCACTGTGCGCGCGCAGGTTCGTCATATCAGAATACACTTCACCGAAAGCAGTAAGCTTTTTACTCGCACGCTGTACAAGACGATACATACCTCTTCGGTCTGAAGTGTTCAGTTCTGTATCGATATAACCAAGTTGCGCTAAAGGCTTAAGTTTGAGTGTTTCTACGGTATTTCTTCGGCAAAA (double strand) [VP1400 promoter EMSA fragment] | binds | binds

— paper PMC5650642
